# Assay results taken from PubChem BioAssay AID540254 (Southern Research Specialized Biocontainment Screening …, 2011).
# Only a part is listed here, and it is no random draw. Results with a measured potency or affinity are listed apart. Activity calls are given as the source filed them. No rule for the calls is given here.
# Experiment: antiviral activity against H1N1 influenza, dose response, cell-based, strain KY180 (AID 540254)
# Conditions: H1N1 KY180 influenza antiviral cell-based screen; at 40 µM (top of the series)
row,Compound,inhibition
1,CCC(C)N(CC(C)C)C(=S)SC(NC(C)=O)C(Cl)(Cl)Cl (configuration not stated),inactive: -1.01%
2,COc1cc(C(=O)NCC2(N3CCOCC3)CCCCC2)cc(Cl)c1OC(C)C,inactive: -3.8%
